# Results from patent US20230287087A1 (MAX PLANCK GESELLSCHAFT ZUR F RDERUNG DER WISSENSCHAFTEN E V, published 2023).
# B1: Re25H10 (VHH)
# VHH: QVQLVESGGGLVQPGGSLRLSCAASGFTFSSSAMSWARQAPGKGLEWVSTISEDGSTYYADSMKGRFTISRDNAKNTVYLQMNSLKPEDTAAYYCATSTEPRTVVAGWGDYLGQGTQVTVSS
# B2: Re21B09 (VHH)
# VHH: QVQLVESGGGLVQPGGSLRLSCAASGFTLDNYAIGWFRQAPGKEREGVSCIRSSDGSTYYADSVKGRFTISKDNAKNTVYLQMNSLKPEDTAVYYCATDGTFNPPCDDLYSWYFPERQGTQVTVSS
# B3: Re8C06 (VHH)
# VHH: QVQLVESGGGLVQAGGSLRLSCAASGRTDTIYNMGWFRQAPGKEREFVAAISWSDGKTTFADSVKGRFTISRDNAKNTVYLQMNSLKPEDTANYYCAAKAFLVAGRSLEEYDYSGQGTQVTVSS
# B4: Re6D08 (VHH)
# VHH: QVQLVESGGGLVQAGGSLRLSCAASGRTFSSYAMGWFHQAPGKEREFVATINWSGDSTYYADSVKGRFTISRDNAKNTVYLQMNSLKPEDTAVYYCAAVVDPSPTYYSGKYYPPRVEYWGKGTQVTVSS
# B5: Re5B06 (VHH)
# VHH: QVQLVESGGGLVQPGGSLRLSCAASGSIRSIYATVWFRQAPGKEHEWVGSITSSNVTTYADSVKGRFTISRDNAKKTVYLQMNSLKPEDTALYYCNVHFASEYSDYAQIQGQGTQVTVSS
# Biological target: SARS-CoV-2 spike protein (transiently expressed in transfected HeLa cells) (SARS-CoV-2, UniProt P0DTC2 14-1273)
# Test: IF, spike-transfected HeLa cells
row,Binder,binding result
1,B1,binds
2,B2,binds
3,B3,binds
4,B4,binds
5,B5,binds
